Measurements reported in PubChem BioAssay AID1224833 (University of Georgia, 2016).
The whole screen tested about 12,000 reagents; shown is an unselected part. About 5,600 of them (46%) were called active. 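Active calls cover z-scores past 1 in both directions, so they include lowered as well as raised rotavirus replication.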 Unmarked entries are inactive. No sequences are given here.

Aim: 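Human genes whose knock-down alters rotavirus replication in monkey cells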 (primary screen)
Cells: monkey MA104 kidney cells
Reagents: siRNA pool against human genes, 50 nM
Timing: 48 h knock-down before infection; read 24 h after infection
Conditions: infection with rotavirus strain RV3 two days after transfection; infectious dose for this stage not given
Measurement: 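Rotavirus antigen per well by fluorescent immunoassay, normalised to non-targeting control wells on each plate and given as a standard z-score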
Scale: z-score vs non-targeting control: higher = more rotavirus replication than with non-targeting control
Hit rule: In these data the active calls have z-score vs non-targeting control at about -1 or lower, or at about 1 or higher
Meaning of the calls: active = z-score beyond 1 either way; inactive = z-score within 1 of zero

For CYRIB (GeneID 51571) [SID329579129], the entry reads z-score vs non-targeting control 0.727. After knock-down of OR5A2 (GeneID 219981) [SID329583542], the record shows z-score vs non-targeting control 0.315. Knock-down of INTU (GeneID 27152) [SID329578511] came out at: z-score vs non-targeting control 2.83 (active). ECPAS (GeneID 23392) [SID329577971] showed z-score vs non-targeting control 1.53 (active). Silencing of TNFRSF1B (GeneID 7133) [SID329575682] resulted in: z-score vs non-targeting control -1.59 (active). Knock-down of GCN1 (GeneID 10985) [SID329577468] resulted in: z-score vs non-targeting control -3.13 (active).

Knock-down of TKFC (GeneID 26007) [SID329578266] came out at: z-score vs non-targeting control -0.546. Depletion of RIC3 (GeneID 79608) [SID329580915] came out at: z-score vs non-targeting control -0.721. XAB2 (GeneID 56949) [SID329580107] scored z-score vs non-targeting control 0.663.

3 entries from above, ordered by “z-score vs non-targeting control”, low to high:
GCN1 (GeneID 10985) [SID329577468] | z-score vs non-targeting control: -3.13 (active)
TNFRSF1B (GeneID 7133) [SID329575682] | z-score vs non-targeting control: -1.59 (active)
ECPAS (GeneID 23392) [SID329577971] | z-score vs non-targeting control: 1.53 (active)

The list goes on:
Knock-down of RINT1 (GeneID 60561) [SID329580486] resulted in: z-score vs non-targeting control -0.0016. With knock-down of ARL10 (GeneID 285598) [SID329583944] the results were z-score vs non-targeting control -0.788. Depletion of HES2 (GeneID 54626) [SID329579349] came out at: z-score vs non-targeting control -0.537. Silencing of ATAT1 (GeneID 79969) [SID329581101] gave: z-score vs non-targeting control -0.99. Knock-down of ZNF180 (GeneID 7733) [SID329575913] gave: z-score vs non-targeting control 0.427. SLITRK6 (GeneID 84189) [SID329581541] showed z-score vs non-targeting control -1.27 (active).

Against AAAS (GeneID 8086) [SID329576002] the deposit lists z-score vs non-targeting control -0.634. After knock-down of FAM114A2 (GeneID 10827) [SID329577381], the record shows z-score vs non-targeting control 0.409. LDAH (GeneID 60526) [SID329580483] gave z-score vs non-targeting control 0.628. Silencing of RIBC1 (GeneID 158787) [SID329583159] resulted in: z-score vs non-targeting control -3.09 (active).
